In patent US8937167B2 (Washington University, priority 2009, dated 2015):
The structures given here were assigned with low confidence; some may be wrong.

Protein sequences, listed by entry. Tags and fused reporters are not part of them. Residues count along the entry.
UniProt P08191, 22-179 limits assumed: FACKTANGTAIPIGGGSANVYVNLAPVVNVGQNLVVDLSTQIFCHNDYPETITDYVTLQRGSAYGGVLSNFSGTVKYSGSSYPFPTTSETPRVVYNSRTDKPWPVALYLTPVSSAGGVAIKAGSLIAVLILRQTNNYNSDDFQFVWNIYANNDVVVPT
UniProt Q1R2J4, 20-300 limits assumed: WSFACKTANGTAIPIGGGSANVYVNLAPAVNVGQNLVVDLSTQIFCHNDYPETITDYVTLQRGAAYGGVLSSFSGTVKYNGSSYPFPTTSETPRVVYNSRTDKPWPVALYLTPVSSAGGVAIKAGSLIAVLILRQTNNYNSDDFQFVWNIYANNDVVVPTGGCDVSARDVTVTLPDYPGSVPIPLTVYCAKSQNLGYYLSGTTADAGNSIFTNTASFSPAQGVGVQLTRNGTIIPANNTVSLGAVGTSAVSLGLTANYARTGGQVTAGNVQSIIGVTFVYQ

Tests used:
[1] = target: FimH lectin domain (residues 1-158 of UPEC J96 FimH) (Escherichia coli, UniProt P08191); conditions: Table 20; compound at 100 μM
FimH = FimH (Escherichia coli, UniProt Q1R2J4); conditions: Table 20; Examples 30-36 numbering;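 note: hemagglutination inhibition of guinea pig erythrocytes agglutinated by type 1 piliated uropathogenic E. coli via FimH mannose binding, quantified through serial dilutions of compound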

Compound	DSF Melting Temp. [1] [°C]	HAI Titer EC>90 (FimH) [µM]
COC(=O)c1cc(O[C@H]2O[C@H](CO)[C@@H](O)[C@H](O)[C@@H]2O)cc(C(=O)OC)c1	73.25	2.000
NC(=O)c1cccc(-c2ccc(O[C@H]3O[C@H](CO)[C@@H](O)[C@H](O)[C@@H]3O)cc2)c1	71.69	2.000
CS(=O)(=O)Nc1cccc(-c2ccc(O[C@H]3O[C@H](CO)[C@@H](O)[C@H](O)[C@@H]3O)cc2)c1	70.90	2.000
